A mixed list of measured activities; the numbers were collected in NIAID ChemDB.

All rows: tests in culture; organism: Aspergillus niger; read-out: MIC

Lines come from different laboratories, so protocols vary. An empty or dashed field is not shown.

smiles	strain	read by	value
C=CCc1ccc(O)c(OC)c1	-	agar	80 µg/mL
N#Cc1c(-c2cccc([N+](=O)[O-])c2)cc(-c2cc3cc(F)ccc3oc2=O)nc1NS(=O)(=O)c1ccccc1	MTCC 282	turbidity	1000 µg/mL
CC1CCC(C(C)C)C(OC(=O)c2cccc(Cl)c2)C1	-	-	10.72 µM
Cc1ccccc1N1COc2c(ccc3ccccc23)C1	NCIM 545	-	25 µg/mL
COC(=O)/C=C/c1ccc(OC)cc1	ATCC 16404	broth dilution / resazurin	500 µg/mL
CC1(C)S[C@@H]2[C@H](NC(=O)Cc3ccccc3)C(=O)N2[C@H]1C(=O)O	-	MTT / broth dilution	>50 µg/mL
O=C1c2c(O)ccc(O)c2C(=O)c2c(NCCNCCO)ccc(NCCNCCO)c21	NCPF 7162	-	>100 µM
Clc1cccc(Cl)c1CO/N=C1/c2ccccc2OCC1n1cncn1	ATCC 16401	-	64 µg/mL
Cc1cccc(N2C(=O)CSC2c2ccccn2)n1	NCIM 742	agar	75 µg/mL
Fc1ccc(CO/N=C2/c3ccccc3OCC2n2cncn2)cc1	ATCC 16401	-	32 µg/mL
N#Cc1c(-c2ccc(F)cc2)cc(-c2cc3cc(F)ccc3oc2=O)nc1NS(=O)(=O)c1ccccc1	MTCC 282	turbidity	50 µg/mL
CC1CCC(C(C)C)C(OC(=O)c2ccc([N+](=O)[O-])cc2[N+](=O)[O-])C1	-	-	8.91 µM
COc1cccc(-c2cc(-c3cc4cc(F)ccc4oc3=O)nc(NS(=O)(=O)c3ccccc3)c2C#N)c1	MTCC 282	turbidity	500 µg/mL
c1ccc(CO/N=C2\c3ccccc3OCC2n2cncn2)cc1	ATCC 16401	-	2 µg/mL
N#Cc1c(-c2ccccc2)cc(-c2cc3cc(F)ccc3oc2=O)nc1NS(=O)(=O)c1ccccc1	MTCC 282	turbidity	500 µg/mL
N#CSc1ccc2nc(NC(=O)CN3C(=O)S/C(=C/c4cccc(Oc5ccccc5)c4)C3=O)sc2c1	MTCC 282	broth dilution / visual reading	1000 µg/mL
COP(=O)(NC(=O)[C@@H]1CCCN1)OC[C@H]1O[C@@H](n2c(=O)[nH]c3c(N)ncnc32)[C@H](O)[C@@H]1O	JCM 5697	-	1 µg/mL
COc1cccc(OC)c1C1SCC(=O)N1c1ncccc1C	NCIM 742	agar	20 µg/mL
Brc1cc(Br)c(N2COc3c(ccc4ccccc34)C2)c(Br)c1	NCIM 545	-	20 µg/mL
NS(=O)(=O)c1ccc(N2C(=O)CSC2c2ccccc2Cl)cc1	NCIM 742	agar	17 µg/mL
O=C(N/N=C/c1cc([N+](=O)[O-])ccc1O)c1ccc(I)cc1	Strain #3	-	0.8 µg/mL
CC1CCC(C(C)C)C(OC(=O)/C=C/c2ccc([N+](=O)[O-])cc2)C1	-	-	6.61 µM
CCOc1ccccc1N1COc2c(ccc3ccccc23)C1	NCIM 545	-	15 µg/mL
COc1ccc(OC)c(C2SCC(=O)N2c2ccccn2)c1	NCIM 742	agar	65 µg/mL
COC(=O)[C@H]1[C@@H]2C[C@@H](O[C@@H]3O[C@H](C)[C@@H](O)[C@H](N)[C@@H]3O)/C=C/C=C/C=C/C=C/C=C/C=C/C=C/[C@H](C)[C@@H](O)[C@H](C)[C@H](C)OC(=O)C[C@H](O)C[C@H](O)[C@@H](O)CC[C@H](O)C[C@H](O)C[C@](O)(C[C@@H]1O)O2	NCPF 7162	-	0.32 µM
CC1CCC(C(C)C)C(OC(=O)C(C)Cl)C1	-	-	12.59 µM
O=C1CSC(c2ccccn2)N1c1ccc(Cl)cn1	NCIM 742	agar	68 µg/mL
CCCCCCN(CCCCCC)c1ccc(/C=C2/SC(=O)NC2=O)cc1	MTCC 282	broth dilution / visual reading	>1000 µg/mL
Clc1ccc2c(c1)OCC(n1cncn1)/C2=N\OCc1ccc(Cl)c(Cl)c1	ATCC 16401	-	32 µg/mL
CC1CCC(C(C)C)C(OC(=O)c2ccc([N+](=O)[O-])cc2)C1	-	-	6.61 µM
COc1cccc2c1C(=O)c1c(O)c3c(c(O)c1C2=O)C[C@@](O)(C(C)=O)C[C@@H]3O[C@H]1C[C@H](N)[C@H](O)[C@H](C)O1	NCPF 7162	-	>100 µM
Cc1ccc(-c2cc(-c3cc4cc(F)ccc4oc3=O)nc(NS(=O)(=O)c3ccccc3)c2C#N)cc1	MTCC 282	turbidity	500 µg/mL
N#CSc1ccc2nc(NC(=O)CN3C(=O)S/C(=C/c4ccccc4Cl)C3=O)sc2c1	MTCC 282	broth dilution / visual reading	500 µg/mL
O=C(N/N=C/c1cc(Br)cc(Br)c1O)c1ccccc1F	-	MTT / broth dilution	>50 µg/mL
N#CSc1ccc2nc(NC(=O)CCl)sc2c1	MTCC 282	broth dilution / visual reading	500 µg/mL
Brc1ccc(CO/N=C2\c3ccccc3OCC2n2cncn2)cc1	ATCC 16401	-	16 µg/mL

Again, the opening 5 rows:

smiles	strain	read by	value
C=CCc1ccc(O)c(OC)c1	-	agar	80 µg/mL
N#Cc1c(-c2cccc([N+](=O)[O-])c2)cc(-c2cc3cc(F)ccc3oc2=O)nc1NS(=O)(=O)c1ccccc1	MTCC 282	turbidity	1000 µg/mL
CC1CCC(C(C)C)C(OC(=O)c2cccc(Cl)c2)C1	-	-	10.72 µM
Cc1ccccc1N1COc2c(ccc3ccccc23)C1	NCIM 545	-	25 µg/mL
COC(=O)/C=C/c1ccc(OC)cc1	ATCC 16404	broth dilution / resazurin	500 µg/mL